The text below walks through data of article PMC7867265, “Phosphofructokinases A and B from Mycobacterium tuberculosis Display Different Catalytic Properties and Allosteric Regulation” (International Journal of Molecular Sciences, 2021).

Holding throughout (assay): purified protein
Common to all, as to conditions: pH 7.4; 37.0 °C

Series [1] has as its system Nc1ncnc2c1ncn2[C@@H]1O[C@H](COP(=O)(O)OP(=O)(O)OP(=O)(O)O)[C@@H](O)[C@H]1O.
Series [2] relates to O=c1[nH]cnc2c1ncn2[C@@H]1O[C@H](COP(=O)(O)OP(=O)(O)O)[C@@H](O)[C@H]1O.
For series [3], the system named is Nc1nc2c(ncn2[C@@H]2O[C@H](COP(=O)(O)OP(=O)(O)O)[C@@H](O)[C@H]2O)c(=O)[nH]1.
In series [4] the test system is Nc1ncnc2c1ncn2[C@@H]1O[C@H](COP(=O)(O)OP(=O)(O)O)[C@@H](O)[C@H]1O.

“Pfk A (Mycobacterium tuberculosis H37Rv)” registered a K0.5 in series [1] of 1.0 ± 0.2 mM.
Broadly, the Km is the substrate concentration at which the rate is half of its maximum. In general, Vmax refers to the top rate of the reaction or transport when substrate is in excess. Consider “Pfk B (Mycobacterium tuberculosis H37Rv)”, for which, in series [2], the Km came to 270 ± 50 µM, the maximum rate (Vmax) is 0.37 µmol/min/mg and the Vmax/Km turned out to be 1400 µL/min/mg. Also, in series [3], the Km was 280 ± 30 µM, the Vmax was 0.32 µmol/min/mg and the Vmax/Km came out at 1100 µL/min/mg. Moreover, in series [1], the K0.5 is reported as 0.052 ± 0.005 mM, the Vmax was determined as 0.8 µmol/min/mg and the Vmax/Km was found to be 15000 µL/min/mg. Moreover, in series [4], the Km came to 12900 ± 3000 µM, the Vmax came out at 3.6 µmol/min/mg and the Vmax/Km stood at 140 µL/min/mg.
